Pooled drug test results. Numbers come from NIAID ChemDB, via PubChem.

All rows: tests in culture; agent: HIV-1; cell line: MT-4; endpoint: inhibition

Inhibition is in % at the dose shown (toxicity tests: loss of growth or viability). An empty or dashed field is not shown. Neighbouring rows are from separate reports.

structure,strain,mutations,method,dose,result
Cc1cn([C@H]2C[C@H](N=[N+]=[N-])[C@@H](CO)O2)c(=O)[nH]c1=O,BRU,-,p24,0.001 µg/mL,92.2%
C[C@H](CC(=O)C[C@@H](C)[C@H]1C[C@H](O)[C@@]2(C)C3=C(C(=O)C[C@]12C)[C@@]1(C)CCC(=O)C(C)(C)[C@@H]1C[C@@H]3O)C(=O)O,-,-,cytopathic effect / microscopy,1000 µM,0%
CC(C)[C@H](NC(=O)c1ccccn1)C(=O)N[C@@H](Cc1ccccc1)[C@H](O)[C@H](O)[C@H](Cc1ccccc1)NC(=O)[C@@H](NC(=O)c1ccccn1)C(C)C,NL4-3,PR-G48V,p24,30 µM,90%
CCC(c1cc(=O)[nH]c(SC2CCCC2)n1)c1c(F)cccc1F,IIIB,-,p24,0.083 µM,99%
Cc1ccc(S(=O)(=O)N[C@@H](CCCCN)C(=O)CCl)cc1,-,-,XTT / p24,10 µg/mL,100%
CCCCCCCCCCCCCC(=O)OC[C@@H](COP(=O)(O)OC[C@@H]1CC[C@H](n2cnc3c(N)ncnc32)O1)OC(=O)CCCCCCCCCCCCC,IIIB,-,ELISA,10 µM,97%
CO[C@@H]1C=C2C3CC[C@H]([C@H](C)/C=C/C(C)C(C)C)[C@@]3(C)CCC2[C@@]2(C)CC[C@H](O)C[C@]12O,-,-,cytopathic effect / microscopy,31.3 µM,0%
COc1cc(O)c2c(c1)C(=O)c1c(cc3c(c1O)-c1c(cc(C)c(C(=O)N[C@H](C)C(=O)O)c1O)[C@H](O[C@@H]1O[C@H](CO)[C@H](NC(C)=O)[C@H](O)[C@H]1O)[C@H]3O)C2=O,IIIB,-,antigen,10 µg/mL,<10%
CCOCn1c(Cc2ccccc2)c(C(C)C)c(=O)[nH]c1=O,IIIB,-,p24,0.082 µM,99.9%
Cc1cn([C@H]2C[C@H](N=[N+]=[N-])[C@@H](CCP(=O)(O)Oc3ccccc3)O2)c(=O)[nH]c1=O,IIIB,-,cytopathic effect / propidium iodide,200 µM,0%
COc1cc(O)c2c(c1)C(=O)c1c(cc3c(c1O)-c1c(cc(C)c(C(=O)N[C@H](C)C(=O)O)c1O)[C@H](O[C@@H]1O[C@H](C)[C@H](O)[C@H](O[C@@H]4OC[C@@H](O)[C@H](O)[C@H]4O)[C@H]1O)[C@H]3O)C2=O,IIIB,-,antigen,10 µg/mL,77%
Cc1cc2c(C(C)C)c(O)c(O)c(C=O)c2c(O)c1-c1c(C)cc2c(C(C)C)c(O)c(O)c(C=O)c2c1O,IIIB,-,p24 / ELISA,10 µg/mL,100%
O=C1CN(c2ccccc2)Cc2nc(Cl)ccc2N1,BRU,-,syncytia,7.5 µg/mL,100%
CC(=O)OC[C@@H]1C[C@H](N=[N+]=[N-])C[C@H](n2cc(C)c(=O)[nH]c2=O)O1,IIIB,-,-,333 µM,0%
Nc1ncnc2c1ncn2[C@H]1CC[C@@H](CO)O1,IIIB,-,ELISA,1 µM,0%
CC(C)(CO)[C@@H](O)C(=O)NCCCC(=O)O,LAV,-,-,1 µg/mL,0%
CC(c1cc(=O)[nH]c(SC2CCCC2)n1)c1c(F)cccc1F,IIIB,-,p24,0.09 µM,99.9%
COc1cc(O)c2c(c1)C(=O)c1c(cc3c(c1O)-c1c(cc(C)c(C(=O)NC(C)C(=O)O)c1O)[C@H](OC1OC(C)C(N)C(O)C1O)[C@H]3O)C2=O,IIIB,-,antigen,10 µg/mL,<10%
O=C1Nc2ccc(Cl)cc2C(c2ccccc2Cl)=NC1O,LAV,-,-,1 µg/mL,0%
COC(=O)C(N)CC(=O)COC(=O)[C@H]1O[C@H](O[C@H]2CC[C@]3(C)[C@H]4C(=O)C=C5[C@@H]6C[C@@](C)(C(=O)O)CC[C@]6(C)CC[C@@]5(C)[C@]4(C)CC[C@H]3C2(C)C)[C@H](O[C@@H]2O[C@H](C(=O)O)[C@@H](O)[C@H](O)[C@H]2O)[C@@H](O)[C@@H]1O.S,-,-,-,250 µg/mL,95.31%
OCCN1CCN(CCCN2c3ccccc3Sc3ccc(Cl)cc32)CC1,LAV,-,-,10 µg/mL,94%
Cc1cn([C@H]2CC[C@@H](CO)O2)c(=O)[nH]c1=O,IIIB,-,ELISA,1 µM,81%
Cc1cn([C@H]2C[C@H](N=[N+]=[N-])[C@@H](CO)O2)c(=O)[nH]c1=O,IIIB,-,p24,0.625 µM,99.62%
CC1=C(/C=C/C(C)=C/C=C/C(C)=C/C(=O)O)C(C)(C)CCC1,HTLV-III,-,plaque count,10 µg/mL,84%
CNC(=O)OCc1cccc(COC(=O)NC)n1,LAV,-,-,100 µg/mL,0%
Cc1cn([C@H]2C=C[C@@H](CO)O2)c(=O)[nH]c1=O,IIIB,-,cytopathic effect / MTT,2.7 µM,70%
Cc1cn([C@H]2C[C@H](F)[C@@H](CO)O2)c(=O)[nH]c1=O,IIIB,-,RT activity,0.025 µM,95%
CCCCCCCCCCCCCC(=O)OC[C@H](COP(=O)(O)OC[C@@H]1CC[C@H](n2cnc3c(=O)[nH]c(N)nc32)O1)OC(=O)CCCCCCCCCCCCC,IIIB,-,ELISA,10 µM,97%
COc1ccc2c(c1)N(C[C@H](C)CN(C)C)c1ccccc1S2,LAV,-,-,10 µg/mL,0%
CC(C)[C@@H](C)/C=C/[C@@H](C)[C@H]1CC[C@H]2C3=CC=C4C[C@@H](O)CC[C@]4(C)[C@H]3CC[C@]12C,-,-,cytopathic effect / microscopy,1000 µM,0%
CC(C)=CCN1Cc2cc(Cl)cc3[nH]c(=S)n(c23)C[C@@H]1C,MFE30(RT-P236L),RT-P236L,antigen,0.038 µM,90%
COc1cc(O)c2c(c1)C(=O)c1c(cc3c(c1O)-c1c(cc(C)c(C(=O)N[C@H](C)C(=O)O)c1O)[C@H](O)[C@H]3O)C2=O,IIIB,-,antigen,10 µg/mL,<10%
C[C@H](CC[C@H](O)C(C)(O)CO)[C@H]1CC[C@@]2(C)C3=CC[C@H]4C(C)(C)C(=O)CC[C@]4(C)C3=CC[C@]12C,-,-,cytopathic effect / microscopy,7.8 µM,100%

A second listing of 3 rows from above:

structure	strain	mutations	method	dose	result
COc1ccc2c(c1)N(C[C@H](C)CN(C)C)c1ccccc1S2	LAV	-	-	10 µg/mL	0%
Cc1cc2c(C(C)C)c(O)c(O)c(C=O)c2c(O)c1-c1c(C)cc2c(C(C)C)c(O)c(O)c(C=O)c2c1O	IIIB	-	p24 / ELISA	10 µg/mL	100%
CC(=O)OC[C@@H]1C[C@H](N=[N+]=[N-])C[C@H](n2cc(C)c(=O)[nH]c2=O)O1	IIIB	-	-	333 µM	0%